Assay results as given in publication PMC4113749 (Toxins, 2014).

Biological target: isolated TcdA CROPs (TcdA^1875–2710) (Clostridium difficile (strain VPI 10463), UniProt P16154 1875-2710)
Assay: MST

B1: N-terminally EGFP-labeled TcdA^1102–1847 (domain or fragment)
chain: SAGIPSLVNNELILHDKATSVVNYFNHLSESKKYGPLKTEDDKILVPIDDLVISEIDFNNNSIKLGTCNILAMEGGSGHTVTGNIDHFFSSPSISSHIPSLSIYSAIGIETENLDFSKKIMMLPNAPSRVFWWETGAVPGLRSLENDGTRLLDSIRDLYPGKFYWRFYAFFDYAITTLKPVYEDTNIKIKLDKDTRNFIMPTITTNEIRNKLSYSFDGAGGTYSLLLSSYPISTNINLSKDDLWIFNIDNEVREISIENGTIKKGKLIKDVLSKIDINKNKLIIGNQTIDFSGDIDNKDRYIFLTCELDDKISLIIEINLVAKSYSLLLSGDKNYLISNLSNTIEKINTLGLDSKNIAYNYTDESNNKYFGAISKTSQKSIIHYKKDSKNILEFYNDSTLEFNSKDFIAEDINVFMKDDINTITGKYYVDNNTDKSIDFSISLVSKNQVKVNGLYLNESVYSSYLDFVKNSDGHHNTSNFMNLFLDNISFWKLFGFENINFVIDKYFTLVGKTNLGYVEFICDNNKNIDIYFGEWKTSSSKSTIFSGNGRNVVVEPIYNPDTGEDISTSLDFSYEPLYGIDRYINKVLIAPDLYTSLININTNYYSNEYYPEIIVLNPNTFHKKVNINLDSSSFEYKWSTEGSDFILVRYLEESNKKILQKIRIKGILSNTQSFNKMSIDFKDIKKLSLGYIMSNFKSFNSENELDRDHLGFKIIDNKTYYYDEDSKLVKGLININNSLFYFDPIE
  Kd: 3.06 µM
